Compound potency records, mixed from different reports. Data source: NIAID ChemDB in PubChem.

Common to all: tests on isolated targets; agent: HIV-1; target: Reverse transcriptase; endpoint: IC50

ICn is the concentration giving n% inhibition. Lines come from different laboratories, so protocols vary. Two numbers with a dash give a range or band.

CCc1cc(C2CC2)ccc1-n1c(Br)nnc1SCC(=O)Nc1ccc(C(=O)O)cc1Cl ; mutations: RT-Y181C ; read by: nucleotide incorporation / radiometric ; value: 0.05–0.1 µM
Cc1cccc(CS(=O)(=O)c2cccc[n+]2[O-])c1 ; read by: nucleotide incorporation / radiometric ; value: >500 µg/mL
CC(C)=CCOc1cc(NC(=S)c2ccoc2C)ccc1Cl ; mutations: RT-L100I ; value: 10.2 µM
CCc1c(Sc2ccccc2)n(COCc2ccccc2)c(=O)[nH]c1=O ; read by: RT activity ; value: 0.16 µM
CCN1c2ncc(CCOc3ccc(-c4ccc(C(=O)O)cc4)cc3)cc2C(=O)N(C)c2cccnc21 ; strain: IIIB ; mutations: RT-K103N Y181C ; read by: nucleotide incorporation / radiometric ; value: 0.05–0.1 µM
COc1ccc2c(C3CC3)ccc(-n3c(Br)nnc3SCC(=O)Nc3ccc(C(=O)O)cc3Cl)c2c1 ; read by: nucleotide incorporation / radiometric ; value: <0.05 µM
N#CCOc1ccc(NC(=O)Cc2ccc(Oc3cc(C#N)cc(C#N)c3)c(Cl)c2)cc1 ; read by: nucleotide incorporation / radiometric ; value: 100 µM
Fc1cccc(Cl)c1CCNC(=S)Nc1nccs1 ; read by: nucleotide incorporation ; value: <1 µg/mL
Cc1cc(C)cc(S(=O)(=O)c2c(C(=O)NC(C)C(N)=O)[nH]c3ccc(Cl)cc23)c1 ; mutations: WT ; read by: RT activity ; value: 0.023 µM
O=C(NCCc1ccccc1)Nc1nc(C(F)(F)F)cs1 ; read by: nucleotide incorporation ; value: <0.1 µg/mL
COP(=O)(c1cc(C)cc(CCC#N)c1)c1c(C(N)=O)[nH]c2ccc(Cl)cc12 ; mutations: K103N ; read by: RT activity ; value: 2.203 µM
O=C(CSc1nnc(C(F)F)n1-c1ccc(C2CC2)c2ccccc12)Nc1ccc(C(=O)O)cc1Cl ; mutations: RT-Y188L ; read by: nucleotide incorporation / radiometric ; value: >0.1 µM
O=C(NCCc1ccccc1)Nc1nncs1 ; read by: nucleotide incorporation ; value: >10 µg/mL
COC(=O)COc1ccc(NC(=O)Cc2ccc(Oc3cc(C#N)cc(C#N)c3)c(Cl)c2)cc1 ; read by: nucleotide incorporation / radiometric ; value: 100 µM
CCN1c2ncc(CCOc3ccc(-c4ccc(C(=O)O)cc4)cc3F)cc2C(=O)N(C)c2cccnc21 ; strain: IIIB ; read by: nucleotide incorporation / radiometric ; value: <0.05 µM
CCCCCCCCCCCCCCc1sc(NC(=O)NCCc2ccccc2)nc1-c1ccc(Cl)cc1 ; read by: nucleotide incorporation ; value: >10 µg/mL
CCCc1c(Sc2ccccc2)n(COCCO)c(=O)[nH]c1=O ; read by: RT activity ; value: 11 µM
CCc1ccc(-n2c(Br)nnc2SCC(=O)Nc2ccc(C(=O)NCC(=O)O)cc2Cl)c2ccccc12 ; read by: nucleotide incorporation / radiometric ; value: <0.05 µM
O=c1cc(Sc2ccccc2)n(COCCO)c(=O)[nH]1 ; read by: RT activity ; value: >500 µM
CC(C)OC(=O)CNC(=O)c1ccc(NC(=O)CSc2nnc(Br)n2-c2ccc(C3CC3)c3ccccc23)c(Cl)c1 ; read by: nucleotide incorporation / radiometric ; value: <0.05 µM
NS(=O)(=O)c1ccc(NC(=O)Cc2ccc(Oc3cc(Cl)ccc3Br)c(Cl)c2)cc1 ; read by: nucleotide incorporation / radiometric ; value: 100 µM
CC(C)=CCc1c(O[C@@H]2O[C@H](CO)[C@@H](O)[C@H](O)[C@H]2O)cc2c(c1O)C(=O)[C@H](O)[C@@H](c1ccc(O)c(O)c1)O2 ; read by: nucleotide incorporation / radiometric ; value: >200 µg/mL
CC(C)=CCOc1cc(NC(=S)c2ccsc2C)ccc1Cl ; mutations: RT-V106A ; value: 0.5 µM
CCOC(=O)CCNC(=O)c1ccc(NC(=O)CSc2nnc(Br)n2-c2ccc(C3CC3)c3ccccc23)c(Cl)c1 ; read by: nucleotide incorporation / radiometric ; value: <0.05 µM
O=C(NCCc1ccccc1)Nc1ccn[nH]1 ; read by: nucleotide incorporation ; value: >10 µg/mL
CC(C)(O)CCc1c(O[C@@H]2O[C@H](CO)[C@@H](O)[C@H](O)[C@H]2O)cc2oc(-c3ccc(O)c(O)c3)c(O)c(=O)c2c1O ; read by: nucleotide incorporation / radiometric ; value: >200 µg/mL
CCc1ccccc1NC(=O)Cc1ccc(Oc2cc(C#N)cc(C#N)c2)c(Cl)c1 ; read by: nucleotide incorporation / radiometric ; value: 100 µM
Cc1cc(C)cc(S(=O)(=O)c2c(C(=O)NC(C)C(N)=O)[nH]c3ccc(Br)cc23)c1 ; mutations: K103N ; read by: RT activity ; value: 0.555 µM
COc1ccc2c(C)ccc(-n3c(Br)nnc3SCC(=O)Nc3ccc(C(=O)O)cc3Cl)c2c1 ; mutations: RT-Y188L ; read by: nucleotide incorporation / radiometric ; value: <0.05 µM
CCN1c2ncc(CCOc3ccc(C(=O)NNC)cc3C)cc2C(=O)N(C)c2cccnc21 ; strain: IIIB ; read by: nucleotide incorporation / radiometric ; value: <0.05 µM
CC(C)[C@H](NC(=O)c1ccc(NC(=O)CSc2nnc(Br)n2-c2ccc(C3CC3)c3ccccc23)c(Cl)c1)C(=O)O ; mutations: RT-Y181C ; read by: nucleotide incorporation / radiometric ; value: <0.05 µM
COc1ccc(-c2coc3cc4c(c(OC)c3c2=O)OCO4)cc1OC ; read by: nucleotide incorporation / radiometric ; value: >200 µg/mL
Cc1cc(CC(=O)Nc2ccc(S(N)(=O)=O)cc2)ccc1Oc1cc(C#N)cc(C#N)c1 ; read by: nucleotide incorporation / radiometric ; value: 10 µM
Cc1cc(C)cc(S(=O)(=O)c2c(C(=O)NCCO)[nH]c3ccc(Cl)cc23)c1 ; mutations: RT-V179D ; read by: nucleotide incorporation / radiometric ; value: >40 µM
N#Cc1cc(C#N)cc(Oc2ccc(CC(=O)Nc3ccc(S(=O)(=O)N4CCOCC4)cc3)cc2Cl)c1 ; read by: nucleotide incorporation / radiometric ; value: 100 µM
CCN1c2ncc(CCOc3ccc(NC(=O)c4ccc(Cl)nc4)cc3C)cc2C(=O)N(C)c2cccnc21 ; strain: IIIB ; read by: nucleotide incorporation / radiometric ; value: <0.05 µM
CCc1cc(CCc2nc3ccccc3o2)c(=O)[nH]c1C ; mutations: RT-Y181S ; read by: nucleotide incorporation ; value: 5.967 µM
NS(=O)(=O)c1ccc(NC(=O)Cc2ccc(Oc3c(Cl)cccc3Cl)c(Cl)c2)cc1 ; read by: nucleotide incorporation / radiometric ; value: 100 µM

Again, the opening 6 rows:

{"structure": "CCc1cc(C2CC2)ccc1-n1c(Br)nnc1SCC(=O)Nc1ccc(C(=O)O)cc1Cl", "mutations": "RT-Y181C", "read by": "nucleotide incorporation / radiometric", "value": "0.05–0.1 µM"}
{"structure": "Cc1cccc(CS(=O)(=O)c2cccc[n+]2[O-])c1", "read by": "nucleotide incorporation / radiometric", "value": ">500 µg/mL"}
{"structure": "CC(C)=CCOc1cc(NC(=S)c2ccoc2C)ccc1Cl", "mutations": "RT-L100I", "value": "10.2 µM"}
{"structure": "CCc1c(Sc2ccccc2)n(COCc2ccccc2)c(=O)[nH]c1=O", "read by": "RT activity", "value": "0.16 µM"}
{"structure": "CCN1c2ncc(CCOc3ccc(-c4ccc(C(=O)O)cc4)cc3)cc2C(=O)N(C)c2cccnc21", "strain": "IIIB", "mutations": "RT-K103N Y181C", "read by": "nucleotide incorporation / radiometric", "value": "0.05–0.1 µM"}
{"structure": "COc1ccc2c(C3CC3)ccc(-n3c(Br)nnc3SCC(=O)Nc3ccc(C(=O)O)cc3Cl)c2c1", "read by": "nucleotide incorporation / radiometric", "value": "<0.05 µM"}